Experimental data as given in US20100048696A1, “AGRICULTURAL DISEASE CONTROL AGENT” (Idemitsu Kosan Co., Ltd., priority 2007, published 2010).

Tested on: Clavibacter michiganense subsp. Nebraskense (ATCC27822)
Test: Basic test: cutting knife disinfection, ring rot pathogens
Assay type: cell-based
Conditions: cutting knife immersed 5 seconds

SMILES | Logarithm (number of ring rot pathogens) (10 times solution) | Logarithm (number of ring rot pathogens) (50 times solution)
CC(=O)O [Acetic acid, reference compound] | 3.5 cfu | 7.0 cfu
O=C1O[C@H]([C@@H](O)CO)C(O)=C1O [Ascorbic acid, reference compound] | 9.3 cfu | 
O=C(O)CC(O)(CC(=O)O)C(=O)O [Citric acid, reference compound] | 9.3 cfu | 
O=C(O)/C=C\C(=O)O [Maleic acid] | 0.0 cfu | 
O=C1C=CC(=O)O1 [Maleic anhydride] | 0.0 cfu | 
O=C(O)CC(O)C(=O)O (stereo not drawn) [Malic acid, reference compound] | 9.3 cfu | 
O=C(O)CCC(=O)O [Succinic acid, reference compound] | 9.3 cfu | 9.3 cfu
